Where “and” joins values, the source holds several entries; their conditions need not be identical. Identical values can stand only once.
Experiments:
[1] = Deodorizing effect test; details: 1% aqueous solution sprayed (0.94 mL) into 4 L bag; initial 50 ppm (Ex. 10: 60 ppm)
[2] = Detergency against dirt on the floor; parameters: key: Excellent: Obviously superior to POE (20 EO) lauryl ether; Good: Comparable to POE (20 EO) lauryl ether; Fair: Slightly inferior to POE (20 EO) lauryl ether; Poor: Obviously inferior to POE (20 EO) lauryl ether; details: 0.2% aqueous solution, pH 7.2, room temperature, 3 panel members averaged
[3] = test system: standard activated sludge; test: Biodegradability test (biochemical oxygen consumption)
[4] = activated sludge 30 mg/L, 25±1° C., listed as ozonized surfactant

Compound	Ammonia concentration, 5 min after spraying [1] [ppm]	Detergency against dirt on the floor (Visually observed) [2]	Ammonia concentration, 40 min after spraying [1] [ppm]	also measured
Ozonized POE sorbitan monooleate (20 EO) [Example 7]	0	Excellent	–	–
sodium alpha-olefin sulfonate [Unozonized surfactant of Ex. 9]	25	–	20	–
Ozonized POE (10 EO) oleyl ether [Example 4]	–	Good to Excellent	–	Degradation, Day 7 [3, 4]: 24% and 21% and 23%; Degradation, Day 14 [3, 4]: 31% and 28% and 30%; Degradation, Day 15 [3, 4]: 40% and 38% and 37%; Degradation, Day 28 [3, 4]: 46% and 41% and 39%; average degradation based on the oxygen demand ([3]; in 28 days): 42%
Ozonized POE (20 EO) oleyl ether [Example 8]	–	Good to Excellent	–	–
POE (20 EO) oleyl ether	–	Fair	–	–
CCCCCCCC/C=C\CCCCCCCC[N+](C)(C)CCCCCCCC/C=C\CCCCCCCC.[Cl-] [Unozonized surfactant of Ex. 10, dimethyldioleylammonium chloride]	40	–	40	–
polyethylene glycol monooleate	30	Good	20	–
Ozonized polyethylene glycol monooleate [Example 5]	0	Good to Excellent	–	–
POE sorbitan monooleate (20 EO)	30	Fair	30	–
POE (20 EO) lauryl ether	–	Good (benchmark)	–	–
